PubChem BioAssay AID504761, Drosophila RNAi Screening Center – 2011
The deposit covers about 22,000 reagents; shown is a random part of those with a known target gene and a result. Of all reagents, 116 (0.52%) got an active call. 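Calls depend on retest data that are not deposited; infection was ranked per plate without normalising between plates; the unit of the infection score is not given.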 Raw values are not corrected between plates. Reagents against one gene are numbered here. A plus sign joins genes that one reagent is predicted to hit. Not all columns of the deposit are shown. Not given: the amount of reagent, the time to read-out.

Aim: 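Fly genes whose silencing reduces dengue virus type 2 infection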 (primary screen)
Cell system: D.Mel-2 cells from Drosophila
Reagents: long dsRNA against Drosophila genes
Conditions: infection with dengue virus type 2; dose and infection time not stated
Measured: 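Cells stained for dengue envelope protein and imaged; percent of infected cells per well on duplicate plates, ranked by infection, with stained nuclei counted for cell number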
Reading the numbers: infection score: higher = more virus-infected cells; cell count: higher = more cells in the well
Hit rule: 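Low infection ranks in the two replicates (chance level up to 0.065) followed by a retest with a 1.5-fold or larger significant decrease, p below 0.05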
Meaning of the calls: active = confirmed: knock-down lowers infection; inactive = not picked or not confirmed

no.	target gene	reagent no.	infection score, replicate 1	infection score, replicate 2	cell count, replicate 1	call
1	Sec71 (GeneID 34785)	1	1.6	4.46	6060	inactive
2	CG32170 (GeneID 317894)	1	0.56	0.71	6074	inactive
3	Pka-R2 (GeneID 36041)	1	16.2	3.36	6601	inactive
4	Pka-R2 (GeneID 36041)	2	4.42	17.1	906	inactive
5	Klp54D (GeneID 47216)	1	8.24	13.5	6237	inactive
6	Targ2 (GeneID 326246)	1	7.89	4.68	6451	inactive
7	Ets65A (GeneID 38700)	1	2.12	2.04	5981	inactive
8	Ets65A (GeneID 38700)	2	5.75	4.88	6610	inactive
9	Ets65A (GeneID 38700)	3	14.6	3.68	6509	inactive
10	Muc55B (GeneID 37057)	1	8.27	12.6	5867	inactive
11	Muc55B (GeneID 37057)	2	28.1	10.5	6654	inactive
12	CG6470 (GeneID 32840)	1	1.7	1.45	6997	inactive
13	CG6470 (GeneID 32840)	2	3.06	29.9	6239	inactive
14	Bug22 (GeneID 34429)	1	4.26	3.82	6294	inactive
15	CG12640 (GeneID 31973)	1	10.7	6.02	3176	inactive
16	CG12640 (GeneID 31973)	2	3.43	2.8	5831	inactive
17	CG3216 (GeneID 37376)	1	2.57	9.01	6836	inactive
18	CG3216 (GeneID 37376)	2	2.59	3.22	6051	inactive
19	Caper (GeneID 33989)	1	8.39	2.97	5710	inactive
20	CG9067 (GeneID 36197)	1	20.5	12.7	3673	inactive
21	CG7255 (GeneID 39662)	1	12.8	10.1	5954	inactive
22	CG40006 (GeneID 3355123)	1	2.57	4.72	6253	inactive
23	CG40006 (GeneID 3355123)	2	4.3	2.61	6368	inactive
24	CG40006 (GeneID 3355123)	3	0.28	0.11	6745	inactive
25	CG40006 (GeneID 3355123)	4	6.54	7.05	6084	inactive
26	CG31787 (GeneID 318941)	1	0.19	0.15	6440	inactive
27	botv (GeneID 37198)	1	3.96	12.5	6687	inactive
28	botv (GeneID 37198)	2	19.7	20.5	3964	inactive
29	Or94a (GeneID 42711)	1	1.07	1.21	5891	inactive
30	Ric (GeneID 36776)	1	4.56	7.78	6892	inactive
31	Ric (GeneID 36776)	2	0.59	9.3	6282	inactive
32	BEAF-32 (GeneID 36645)	1	10.8	13	6280	inactive
33	CG14054 (GeneID 31172)	1	10.6	8.05	5380	inactive
34	CG9649 (GeneID 41727)	1	9.28	14.7	6824	inactive
35	CG9649 (GeneID 41727)	2	6.62	6.95	6423	inactive
36	Osi4 (GeneID 40758)	1	5.97	7.88	6632	inactive
37	Acbp6 (GeneID 38782)	1	3.85	1.49	6084	inactive
38	Dop1R1 (GeneID 41726)	1	7.67	5.8	6321	inactive
39	Dop1R1 (GeneID 41726)	2	2.6	5.63	5193	inactive
40	Dop1R1 (GeneID 41726)	3	0.62	0.33	6243	inactive
41	zetaTry (GeneID 36216)	1	9.72	16	5863	inactive
42	CG7271 (GeneID 40021)	1	3.41	1.38	6572	inactive
43	CG32483 (GeneID 318050)	1	1.01	3.58	6364	inactive
44	CG9119 (GeneID 38124)	1	6.31	10.6	5960	inactive
45	CG9119 (GeneID 38124)	2	2.58	2.33	7052	inactive
46	CG9775 (GeneID 40576)	1	6.66	11.2	6513	inactive
47	CG9775 (GeneID 40576)	2	3.32	3.63	6352	inactive
48	eEF1delta (GeneID 34363)	1	16	9.02	6631	inactive
49	eEF1delta (GeneID 34363)	2	6.03	2.37	6366	inactive
50	Taf11 (GeneID 34293)	1	8.78	2.56	6461	inactive
51	Cpr49Ab (GeneID 36345)	1	1.82	0.32	5835	inactive
52	Cpr49Ab (GeneID 36345)	2	4.9	4.87	6142	inactive
53	Dcps (GeneID 40711)	1	8.39	5.61	4852	inactive
54	CG3270 (GeneID 35575)	1	9.7	14.2	6183	inactive
55	AhcyL2 (GeneID 42043)	1	2.99	2.52	6728	inactive
56	CG33695 + cana	1	5.52	1.01	6102	inactive
57	CG33695 + cana	2	20.8		3422	inactive
58	CG7694 (GeneID 42230)	1	14.5	16.2	6426	inactive

Records above whose gene name begins with D or d (4):
target gene	reagent no.	infection score, replicate 1	infection score, replicate 2	cell count, replicate 1	call
Dop1R1 (GeneID 41726)	1	7.67	5.8	6321	inactive
Dop1R1 (GeneID 41726)	2	2.6	5.63	5193	inactive
Dop1R1 (GeneID 41726)	3	0.62	0.33	6243	inactive
Dcps (GeneID 40711)	1	8.39	5.61	4852	inactive
